Anti-infective test results gathered from many reports (values: NIAID ChemDB through PubChem).

Shared fields: growth or infection tests; species: Candida albicans; measure: MIC

Conditions beyond the fields shown may differ between rows. Blank or dashed fields: not listed here.

compound	strain	read by	setting	value
Clc1ccccc1C(c1ccccc1)(c1ccccc1)n1ccnc1	B311	visual reading	-	2 µg/mL
C[C@@H](n1ccn(-c2ccc(OCC(F)(F)C(F)F)cc2)c1=O)C(O)(Cn1cncn1)c1ccccc1F	TA	-	-	<0.016 µg/mL
CCCCCc1ccc(C(=O)N[C@H]2CCCNC(=O)C3C[C@H](N)CN3C(=O)C(C(C)O)NC(=O)C(CCc3ccc(O)cc3)NC(=O)C3C[C@@H](O)CN3C(=O)C(C(C)O)NC2=O)cc1	ATCC 10231	-	-	25 µg/mL
Cl.Cl.O=C(Nc1ccc(C2=NCCN2)cc1)c1ccc(C(=O)Nc2ccc(C3=NCCN3)cc2)cc1	-	-	-	>60 µg/mL
CCCCCOc1ccc(-c2ccc(-c3ccc(C(=O)N[C@H]4CCCNC(=O)[C@@H]5C[C@H](N)CN5C(=O)[C@H](CC)NC(=O)C(CCc5ccc(O)cc5)NC(=O)[C@@H]5C[C@@H](O)CN5C(=O)[C@H]([C@@H](C)O)NC4=O)cc3)cc2)cc1	ATCC CCH442	-	-	0.1 µg/mL
C[C@H]1[C@H](O)[C@@H](C)/C=C/C=C/C=C/C=C/C=C/C=C/C=C/[C@H](O[C@@H]2O[C@H](C)[C@@H](O)[C@H](N)[C@@H]2O)C[C@@H]2O[C@](O)(C[C@@H](O)C[C@@H](O)CC[C@H](O)[C@@H](O)C[C@@H](O)CC(=O)O[C@H]1C)C[C@H](O)[C@H]2C(=O)O	ATCC 10231	broth dilution / resazurin	-	0.49 µg/mL
Nc1nc(CSCC(N)C(=O)N[C@H]2[C@@H](O)[C@H](n3cnc4c(N)ncnc43)O[C@@H]2C(=O)O)cs1	FP633	-	-	1.6 µg/mL
N=C(N)c1ccc(-c2ccc(-c3ccc(C(=N)N)cc3)o2)cc1	-	-	-	>60 µg/mL
O=C(c1cc(O)c(O)c(Br)c1Br)c1cc(O)c(O)c(Br)c1Br	ATCC 10231	-	-	100 µg/mL
N=C(N)c1ccc(-c2ccc(-c3ccc(C(=N)N)cc3)[nH]2)cc1	-	-	-	10 µg/mL
C[C@@H](n1ccn(-c2ccc(OC(F)(F)C(F)F)cc2)c1=O)C(O)(Cn1cncn1)c1ccccc1F	TIMM1756	-	-	<0.016 µg/mL
CCCCNC(=O)N[C@@H](Cc1ccc(OC)cc1)C(=O)N[C@H]1[C@@H](O)[C@H](n2cnc3c(N)ncnc32)O[C@@H]1C(=O)NCCCC	FP633	-	-	>100 µg/mL
CC(O)C1NC(=O)C(CCc2ccc(O)cc2)NC(=O)C2C[C@@H](O)CN2C(=O)C(C(C)O)NC(=O)[C@@H](N)CCCNC(=O)C2C[C@H](N)CN2C1=O	ATCC CCH442	-	-	>100 µg/mL
C[C@@H](N1CCN(c2ccc(OC(F)(F)C(F)F)cc2)C1=O)C(O)(Cn1cncn1)c1ccc(F)cc1F	TIMM1756	-	-	<0.016 µg/mL
N=C(N)c1ccc(Oc2ccc(-c3cc4ccc(C(=N)N)cc4[nH]3)cc2)cc1	-	-	-	3 µg/mL
Nc1ncnc2c1ncn2[C@@H]1O[C@H](C(=O)O)[C@@H](NC(=O)C(N)Cc2ccc(Cl)cc2)[C@H]1O	FP633	-	-	6.2 µg/mL
Clc1ccccc1C(c1ccccc1)(c1ccccc1)n1ccnc1	Clinical isolates	-	48 h	2 µg/mL
C[C@@H](N1CCN(c2ccc(C(F)(F)F)cc2)C1=O)C(O)(Cn1cncn1)c1ccc(F)cc1F	TIMM1756	-	-	<0.016 µg/mL
Cc1c(/C=C/c2oc3ccc(C(=N)N)cc3c2C)oc2ccc(C(=N)N)cc12	-	-	-	>60 µg/mL
Nc1ncnc2c1ncn2[C@@H]1O[C@H](C(=O)O)[C@@H](NC(=O)C(N)Cc2cccs2)[C@H]1O	FP633	-	-	1.6 µg/mL
CCCCCOc1ccc(-c2ccc(-c3ccc(C(=O)N[C@H]4CCCNC(=O)[C@@H]5C[C@H](N)CN5C(=O)CNC(=O)C(CCc5ccc(O)cc5)NC(=O)[C@@H]5C[C@@H](O)CN5C(=O)[C@H]([C@@H](C)O)NC4=O)cc3)cc2)cc1	ATCC 10231	-	-	0.39 µg/mL
Cc1ccc2c(c1)c1nnc(N3CCN(C)CC3)nc1n2C	2402E	-	-	2 µg/mL
O=C(N/N=C/c1cccc([N+](=O)[O-])c1)c1ccc(F)cc1	ATCC 2091	-	-	125 µg/mL
CC(=O)N1CCN(c2ccc(OC[C@H]3CO[C@](Cn4ccnc4)(c4ccc(Cl)cc4Cl)O3)cc2)CC1	C316	-	-	0.06 µg/mL
CC(=O)N1CCN(c2ccc(OC[C@H]3CO[C@](Cn4ccnc4)(c4ccc(Cl)cc4Cl)O3)cc2)CC1	B311	visual reading	-	64 µg/mL
Clc1ccc(/C(Cn2ccnc2)=N/Nc2c(Cl)cccc2Cl)s1	B	-	-	6.2 µg/mL
CC(=O)N1N=C(c2ccc(F)cc2)OC1c1ccccc1[N+](=O)[O-]	ATCC 2091	-	-	125 µg/mL
Clc1ccc(COC(Cn2ccnc2)c2ccc(Cl)cc2Cl)c(Cl)c1	B311	visual reading	-	4 µg/mL
CCCCCOc1ccc(-c2ccc(-c3ccc(C(=O)N[C@H]4CCCNC(=O)C5C[C@H](NC(=O)c6cn[nH]c6)CN5C(=O)C(C(C)O)NC(=O)C(CCc5ccc(O)cc5)NC(=O)C5C[C@@H](O)CN5C(=O)C(C(C)O)NC4=O)cc3)cc2)cc1	ATCC CCH442	-	-	0.39 µg/mL
Nc1ncnc2c1ncn2[C@@H]1O[C@H](C(=O)O)[C@@H](NC(=O)[C@H](Cc2ccccc2)NC=O)[C@H]1O	FP633	-	-	>100 µg/mL
CC(=O)N1N=C(c2ccc(F)cc2)OC1c1ccc([N+](=O)[O-])o1	ATCC 2091	-	-	8 µg/mL
N=C(N)c1ccc2nc(-c3ccc(-c4nc5ccc(C(=N)N)cc5[nH]4)[nH]3)[nH]c2c1	Isolate CA783	-	-	0.78 µg/mL
CC(=O)N1N=C(c2ccc(F)cc2)OC1c1cccc([N+](=O)[O-])c1	ATCC 2091	-	-	250 µg/mL
CCCCCOc1ccc(-c2ccc(-c3ccc(CN[C@H]4CCCNC(=O)C5C[C@H](N)CN5C(=O)C(C(C)O)NC(=O)C(CCc5ccc(O)cc5)NC(=O)C5C[C@@H](O)CN5C(=O)C(C(C)O)NC4=O)cc3)cc2)cc1	ATCC 62376	-	-	0.39 µg/mL
COc1ccc(C[C@H](N)C(=O)N[C@H]2[C@@H](O)[C@H](n3cnc4c(N(C)C)ncnc43)O[C@@H]2C(=O)O)cc1	FP633	-	-	>100 µg/mL

For reference, 4 entries again:

compound | strain | read by | setting | value
CC(=O)N1N=C(c2ccc(F)cc2)OC1c1cccc([N+](=O)[O-])c1 | ATCC 2091 | - | - | 250 µg/mL
CC(=O)N1N=C(c2ccc(F)cc2)OC1c1ccccc1[N+](=O)[O-] | ATCC 2091 | - | - | 125 µg/mL
C[C@@H](N1CCN(c2ccc(C(F)(F)F)cc2)C1=O)C(O)(Cn1cncn1)c1ccc(F)cc1F | TIMM1756 | - | - | <0.016 µg/mL
Cl.Cl.O=C(Nc1ccc(C2=NCCN2)cc1)c1ccc(C(=O)Nc2ccc(C3=NCCN3)cc2)cc1 | - | - | - | >60 µg/mL